Compound potency records, mixed from different reports. Data source: NIAID ChemDB in PubChem.

Shared fields: whole-cell or culture tests; organism: Rhinovirus

Rows are shuffled and stem from different studies. Blank or dashed fields: not listed here. ECn is the concentration giving n% inhibition of infection, replication or growth. MIC50, MIC90 and the like: level of inhibition, or share of isolates inhibited.

compound	strain	endpoint	cell line	method	value
CC(=O)c1c(-c2ccc(Cl)c(Cl)c2)oc2ccccc2c1=O	Serotype 14	EC50	HeLa	plaque count	0.83 µM
Cc1cc(CCCCCCCOc2ccc(C3=NC(C)(C)CO3)cc2)on1	TYPE 2	MIC	-	-	1.5 µM
CC(C)S(=O)(=O)n1c(N)nc2ccc(C(C(N)=O)c3c(F)c(F)cc(F)c3F)cc21	1059 (serotype 14)	EC50	HeLa	plaque count	0.05 µg/mL
CCOC(=O)/C=C/[C@H](C[C@@H]1CCNC1=O)NC(=O)[C@@H](CC(=O)[C@@H](NC(=O)c1cc(C)on1)C(C)C)Cc1ccc(F)cc1	Isolate 18	EC50	OHIO HELA-I	cytopathic effect / visual reading	<0.01 µg/mL
Cc1cc(CCCOc2c(C)cc(-c3nnc(C)o3)cc2C)on1	Serotype 14	MIC	-	-	8.9 µM
CCOC(=O)c1ccc(OCCCCOc2ccc(-c3snc(SC)c3C#N)cc2)cc1	Serotype 72 (group A)	EC50	HELA-OHIO	cytopathic effect	>2 µM
COc1cc(/C=C/C(=O)Oc2c(-c3ccc(Cl)c(Cl)c3)oc3ccccc3c2=O)ccc1O	Serotype 1B	EC50	HeLa	plaque count	>1.56 µM
CN(C)c1nc(C(F)(F)F)nc2c1ncn2Cc1ccc(Br)cc1	Serotype 13	EC50	M-HELA	plaque count	>8 µM
COc1cc(/C=C/C(=O)Oc2c(-c3ccc(Cl)c(Cl)c3)oc3ccccc3c2=O)ccc1OC(C)=O	Serotype 1B	EC50	HeLa	plaque count	>0.39 µM
O=P1(O)OCC2O[C@@H](n3cnc4c(SCc5ccccc5)ncnc43)[C@H](O)C2O1	TYPE 56	MIC	-	-	3.2 µg/mL
CON[C@H](C(=O)N[C@@H](CC(C)C)C(=O)N[C@@H](Cc1ccccc1)C(=O)C(=O)/C=C/[C@H](CCS(C)(=O)=O)NC(=O)OC(C)(C)C)C(C)C	TYPE 14	EC50	HeLa	plaque count	>10 µg/mL
COc1cc(C(=O)Oc2c(-c3ccc(Cl)c(Cl)c3)oc3ccccc3c2=O)ccc1OC(C)=O	Serotype 14	EC50	HeLa	plaque count	>1.56 µM
COc1ccc(Cn2cnc3c(N(C)C)nc(C(F)(F)F)nc32)cc1C	Serotype 13	EC50	M-HELA	plaque count	>8 µM
Cc1ccc(CCCOc2c(C)cc(C#N)cc2C)o1	serotypes 2 14 1A 1B 6 21 22 15 25 30 50 67 89 86 41	EC50	HeLa	cytopathic effect	0.313 µg/mL
CSc1nsc(-c2ccc(OCCc3ccccc3)cc2)c1C#N	Serotype 42 (group A)	EC50	HELA-OHIO	cytopathic effect	>20 µM
CN(C)c1nc(C(F)(F)F)nc2c1ncn2Cc1ccc(Cl)c(Cl)c1	Serotype 5	EC50	M-HELA	plaque count	>8 µM
CSc1nsc(-c2ccc(OCc3ccccc3)cc2)c1C#N	Serotype 29 (group B)	EC50	HELA-OHIO	cytopathic effect	20 µM
CC(=O)c1ccc(CCCOc2c(C)cc(-c3noc(C(F)(F)F)n3)cc2C)nn1	serotypes 3 4 5 9 16 18 38 66 75 67	EC80	HeLa	cytopathic effect	0.189 µg/mL
COc1ccc(-c2cc(N3CCCCC3)no2)c(O)c1	Serotype 2	EC50	HeLa	cytopathic effect	>364 µM
Cc1ccc(C(=O)CCCCCCOc2ccc(C3=NCC(C)O3)cc2)s1	TYPE 14	EC50	HeLa	cytopathic effect	1.55 µM
CON[C@H](C(=O)N[C@@H](CC(C)C)C(=O)N[C@@H](Cc1ccccc1)C(=O)C(=O)/C=C/[C@H](CCC(N)=O)NC(=O)OC(C)(C)C)C(C)C	TYPE 14	EC50	HeLa	plaque count	0.74 µg/mL
NC(=O)C(c1cccc(F)c1)c1ccc2nc(N)n(S(=O)(=O)N3CCOCC3)c2c1	1059 (serotype 14)	EC50	HeLa	plaque count	0.08 µg/mL
Cc1ccc(Cn2cnc3c(N(C)C)nc(C(F)(F)F)nc32)cc1	TYPE 8	EC50	M-HELA	plaque count	>2.5 µM
COc1ccc(CC2COc3cc(OC)cc(OC)c3C2=O)cc1	TYPE 14	EC50	HeLa	plaque count	>6.25 µM
COc1cc(C(=O)Oc2c(-c3ccc(Cl)c(Cl)c3)oc3ccccc3c2=O)cc(OC)c1O	Serotype 1B	EC50	HeLa	plaque count	>1.56 µM
COc1ccc(-c2cc(N3CCCC3)no2)c(O)c1	Serotype 14	EC50	HeLa	cytopathic effect	>384 µM
O=C(/C=C(\O)c1ccccc1O)/C=C/c1ccc([N+](=O)[O-])cc1	Serotype 14	EC50	HeLa	plaque count	>6.25 µM
COc1ccc2nc([C@@H](O)[C@H](O)c3nc4ccc(OC)cc4[nH]3)[nH]c2c1	Serotype 42	EC50	WI-38	cytopathic effect	10 µg/mL
CSc1nsc(-c2ccc(OCCCCOc3ccc([N+](=O)[O-])cc3)cc2)c1C#N	Serotype 39 (group B)	EC50	HELA-OHIO	cytopathic effect	>0.5 µM
COC(=O)c1cc(CCCOc2c(C)cc(-c3noc(C)n3)cc2C)on1	Serotype 67	EC50	HeLa	cytopathic effect	0.047 µg/mL
CSc1nsc(-c2ccc(OCCCOc3ccccc3)cc2)c1C#N	Serotype 85 (group B)	EC50	HELA-OHIO	cytopathic effect	>20 µM
N#Cc1ccc(Oc2ccc(Cl)c(Cl)c2)nc1	TYPE 1A	EC50	HeLa	cytopathic effect	5 µM
CCOc1cc(OC)ccc1-c1cc(N(CC)CC)no1	Serotype 70 (group A)	EC50	HeLa	cytopathic effect	55.2 µM
CCOc1ccc2nc([C@H](O)[C@@H](O)c3nc4ccc(OCC)cc4[nH]3)[nH]c2c1	Serotype 1A	EC50	WI-38	cytopathic effect	1 µg/mL
CCOC(=O)/C=C/[C@H](C[C@@H]1CCNC1=O)NC(=O)[C@H](Cc1ccc(F)cc1)NC(=O)[C@@H](NC(=O)c1cc(C)on1)C(C)(C)C	Serotype 9	EC50	H1-HELA	XTT	0.04 µM
O=C1CC(c2ccc(C3=NCCO3)cc2)Oc2ccccc21	TYPE 1B	EC50	OHIO HELA	plaque count	>25 µM
Cc1ccc(C(=O)CCCCOc2ccc(C3=N[C@H](C)CO3)cc2)s1	TYPE 2	EC50	HeLa	cytopathic effect	>13 µM
CS(=O)(=O)c1ccc(Oc2ccc(Cl)c(Cl)c2)nc1	TYPE 64	EC50	-	cytopathic effect	0.94 µM
CCSc1ncnc2c1ncn2[C@@H]1OC2COP(=O)(O)OC2[C@H]1O	TYPE 8	MIC	-	-	3.2 µg/mL
CCOC(=O)c1ccc(OCCC2CCN(c3ccc(C)nn3)CC2)cc1	Serotype 14	EC90	-	-	0.13 µM
CC(=O)Nc1ccc(Cn2cnc3c(N(C)C)ncnc32)cc1	Serotype 1B	EC50	M-HELA	plaque count	>50 µM
Cc1ccc(Cn2cnc3c(N(C)C)nc(C(F)(F)F)nc32)cc1C	Serotype 1B	EC50	M-HELA	plaque count	0.17 µM
CN(C)c1nc(Cl)nc2c1ncn2Cc1ccc(Cl)cc1	Serotype 18	EC50	M-HELA	plaque count	>5 µM
CCc1ccc(CCCOc2c(C)cc(-c3noc(C)n3)cc2C)nn1	serotypes 3 4 5 9 16 18 38 66 75 67	EC50	HeLa	cytopathic effect	0.0556 µg/mL
CSc1nsc(-c2ccc(OCCOc3ccc([N+](=O)[O-])cc3)cc2)c1C#N	Serotype 59 (group B)	EC50	HELA-OHIO	cytopathic effect	>2 µM
C#CCOc1cc(OC)ccc1-c1cc(N(CC)CC)no1	Serotype 72 (group A)	EC50	HeLa	cytopathic effect	>40 µM
Cc1ccc(CCCCCOc2ccc(C3=NCCO3)cc2)s1	serotype 1A 1B 2 6 14 15 21 22 25 30 41 50 67 86 89	MIC80	-	-	30.39 µM
COc1ccc2nc(C[C@@H](O)c3nc4ccc(OC)cc4[nH]3)[nH]c2c1	Serotype 42	EC50	WI-38	cytopathic effect	10 µg/mL
Nc1nc2c(ccn2[C@@H]2C[C@H](CO)[C@H](O)[C@@H]2O)c(=O)[nH]1	TYPE 31	MIC	-	-	>100 µg/mL
CON[C@H](C(=O)N[C@@H](CC(C)C)C(=O)N[C@@H](Cc1ccccc1)C(=O)C(=O)/C=C/[C@H](CCC(N)=O)NC(=O)[C@H](N)CCC(=O)O)C(C)C	TYPE 14	EC50	HeLa	plaque count	>10 µg/mL
O=C(/C=C(\O)c1cc(Cl)ccc1O)/C=C/c1ccc(Cl)cc1	Serotype 1B	EC50	HeLa	plaque count	5.34 µM
CCCCCCCCCCCCCCOc1ccc(C(C)=O)o1	TYPE 39	EC50	HFF	plaque count	<0.25 µg/mL
COc1ccc(OC)c2[nH]c([C@H](O)[C@@H](O)c3nc4c(OC)ccc(OC)c4[nH]3)nc12	Serotype 42	EC50	WI-38	cytopathic effect	320 µg/mL
Cc1cc(CCCCCOc2c(Cl)cc(C3=NCCO3)cc2Cl)on1	TYPE 54	EC50	HeLa	plaque count	0.65 µg/mL
CCOC(=O)c1ccc(OCCC2CCN(c3ccc(C)nn3)CC2)cc1	Serotype 14	EC50	WI-38	cytopathic effect	<0.1 µg/mL
CC(C)S(=O)(=O)n1c(N)nc2ccc(/C(=N/O)c3ccccc3)cc21	-	EC50	HeLa	cytopathic effect	0.04 µg/mL
O=c1c(Cc2ccc(Cl)cc2)coc2cc(Cl)cc(Cl)c12	TYPE 14	EC50	HeLa	plaque count	4.27 µM
Nc1nc2c(ncn2COC(CO)CO)c(=O)[nH]1	TYPE 2	EC50	HeLa	cytopathic effect	>400 µg/mL
CN(C)c1nc(C(F)(F)F)nc2c1ncn2Cc1ccc(Cl)c(N)c1	Serotype 29	EC50	M-HELA	plaque count	>8 µM
CN(C)S(=O)(=O)n1c(N)nc2ccc(C(C(N)=O)c3cccc(F)c3)cc21	1059 (serotype 14)	EC50	HeLa	plaque count	0.05 µg/mL
CCOC(=O)c1ccc(C2CC(=O)c3ccccc3O2)cc1	TYPE 1B	EC50	OHIO HELA	plaque count	>25 µM
Cc1cc(CCCOc2c(C)cc(-c3noc(C(F)(F)F)n3)cc2C)on1	Serotype 10	EC90	-	-	0.3 µM
CCO/N=C/c1ccc(OCCC2CCN(c3ccc(Cl)nn3)CC2)cc1	FO 1-3772 (ICAM-1 receptor group 52)	EC50	KB	neutral red	0.052 µM
O=c1c(O)c(-c2ccc(C3=NCCO3)cc2)oc2ccc(Cl)cc12	TYPE 1B	EC50	OHIO HELA	plaque count	12.1 µM
COc1ccc(Cc2coc3ccccc3c2=O)cc1	TYPE 14	EC50	HeLa	plaque count	15.37 µM
COc1cc(C(=O)Oc2c(-c3ccc(Cl)c(Cl)c3)oc3ccccc3c2=O)ccc1O	Serotype 14	EC50	HeLa	plaque count	>6.25 µM
Cc1nc(-c2cc(C)c(OCCCc3cc(C(F)(F)F)no3)c(C)c2)no1	Serotype 89	EC50	HeLa	cytopathic effect	0.019 µg/mL
NC(=O)CCC(/C=C/S(=O)(=O)c1ccccc1)NC(=O)[C@H](Cc1ccccc1)NC(=O)OCc1ccccc1	TYPE 14	EC50	HeLa	plaque count	>10 µg/mL
C[C@@]1(O)[C@H](O)[C@@H](COP(=O)(O)OP(=O)(O)OP(=O)(O)O)O[C@H]1n1ccc2c(N)ncnc21	TYPE 14	EC50	HELA OHIO-1	neutral red	6 µM
Cc1ccc(C(=O)CCCCCCOc2ccc(C3=NCCO3)cc2)s1	TYPE 14	EC50	HeLa	cytopathic effect	1.34 µM
COc1ccc(OCCCCCCn2ccnc2)c(Cl)c1	TYPE 14	EC50	HeLa	plaque count	27.6 µM
COc1ccc(/C=C2\COc3ccccc3C2=O)cc1	TYPE 1B	EC50	HeLa	plaque count	>6.25 µM
CCC1COC(c2ccc(OCCCCC(=O)c3ccc(C)s3)cc2)=N1	TYPE 2	EC50	HeLa	cytopathic effect	2.15 µM
Cc1nc(-c2cc(C)c(OCCCc3cc(C4CC4)no3)c(C)c2)no1	Serotype 25	EC50	HeLa	cytopathic effect	0.006 µg/mL
CC(C)S(=O)(=O)n1c(N)nc2ccc(C(C(N)=O)c3cc(F)ccc3F)cc21	1059 (serotype 14)	EC50	HeLa	plaque count	0.08 µg/mL
CC(=O)Nc1cccc(Nc2nc(Cl)nc3c2ncn3Cc2ccccc2)c1	Serotype 5	EC50	-	plaque count	3.6 µM
COc1ccc(/C=C2\COc3cc(OC)cc(OC)c3C2=O)cc1	TYPE 1B	EC50	HeLa	plaque count	>6.25 µM
COc1cc(C(=O)Oc2c(-c3ccc(Cl)cc3)oc3ccccc3c2=O)cc(OC)c1O	Serotype 14	EC50	HeLa	plaque count	>1.56 µM
O=C1/C(=C/c2ccc(Cl)cc2)COc2cc(Cl)cc(Cl)c21	TYPE 1B	EC50	HeLa	plaque count	0.36 µM
Cc1ccc(C(=O)CCCCCCOc2ccc(C3=N[C@H](C)CO3)cc2)s1	TYPE 2	EC50	HeLa	cytopathic effect	>16.1 µM
CCN(CC)c1cc(-c2ccc(OC)cc2OC)on1	Serotype 29 (group B)	EC50	HeLa	cytopathic effect	>362 µM
Cc1cc(CCCOc2c(C)cc(-c3nc(C)no3)cc2C)on1	Serotype 14	MIC	-	-	0.19 µM

10 of the rows above, restated:

compound	strain	endpoint	cell line	method	value
Cc1ccc(Cn2cnc3c(N(C)C)nc(C(F)(F)F)nc32)cc1	TYPE 8	EC50	M-HELA	plaque count	>2.5 µM
Cc1ccc(C(=O)CCCCCCOc2ccc(C3=NCC(C)O3)cc2)s1	TYPE 14	EC50	HeLa	cytopathic effect	1.55 µM
CCOC(=O)/C=C/[C@H](C[C@@H]1CCNC1=O)NC(=O)[C@@H](CC(=O)[C@@H](NC(=O)c1cc(C)on1)C(C)C)Cc1ccc(F)cc1	Isolate 18	EC50	OHIO HELA-I	cytopathic effect / visual reading	<0.01 µg/mL
C[C@@]1(O)[C@H](O)[C@@H](COP(=O)(O)OP(=O)(O)OP(=O)(O)O)O[C@H]1n1ccc2c(N)ncnc21	TYPE 14	EC50	HELA OHIO-1	neutral red	6 µM
Cc1ccc(C(=O)CCCCCCOc2ccc(C3=N[C@H](C)CO3)cc2)s1	TYPE 2	EC50	HeLa	cytopathic effect	>16.1 µM
COc1cc(/C=C/C(=O)Oc2c(-c3ccc(Cl)c(Cl)c3)oc3ccccc3c2=O)ccc1O	Serotype 1B	EC50	HeLa	plaque count	>1.56 µM
Cc1ccc(C(=O)CCCCOc2ccc(C3=N[C@H](C)CO3)cc2)s1	TYPE 2	EC50	HeLa	cytopathic effect	>13 µM
CCO/N=C/c1ccc(OCCC2CCN(c3ccc(Cl)nn3)CC2)cc1	FO 1-3772 (ICAM-1 receptor group 52)	EC50	KB	neutral red	0.052 µM
COc1cc(C(=O)Oc2c(-c3ccc(Cl)cc3)oc3ccccc3c2=O)cc(OC)c1O	Serotype 14	EC50	HeLa	plaque count	>1.56 µM
Cc1cc(CCCCCOc2c(Cl)cc(C3=NCCO3)cc2Cl)on1	TYPE 54	EC50	HeLa	plaque count	0.65 µg/mL